Pooled drug test results. Numbers come from NIAID ChemDB, via PubChem.

Shared fields: tests in culture; species: Varicella zoster virus; endpoint: EC50

An empty or dashed field is not shown. Conditions beyond the fields shown may differ between rows. ECn: concentration that inhibits the pathogen or its effect by n%.

smiles | strain or isolate | method | cell line | value
O=C(NCc1ccc(Cl)cc1)c1c[nH]c2c(F)cccc2c1=O | COH | plaque count |  | 2.3 µM
O=C(O)P(=O)(O)O | 9/84 | cytopathic effect / ELISA | HEL | 147 µM
O=c1[nH]c(=O)n([C@@H]2O[C@H](CO)[C@@H](O)[C@@H]2O)cc1/C=C/Cl | Kawaguchi acyclovir-resistant mutant A6 | plaque count |  | 0.000435 µg/mL
Nc1nc2c(ncn2CC(CO)CCO)c(=O)[nH]1 | 9/84-A | cytopathic effect / ELISA | HEL | >100 µM
O=C(O)P(=O)(O)O | Oka BVaraU-resistant | cytopathic effect | HEL | 42 µM
Nc1nc2c(ncn2C[C@@H](CO)CCO)c(=O)[nH]1 | 9/84-C | cytopathic effect / ELISA | HEL | >100 µM
Nc1nc2c(ncn2CCC(CO)CO)c(=O)[nH]1 | Clinical isolate VZV-13 | cytopathic effect | HEL | 3.54 µM
Nc1nc2c(ncn2C[C@H](CO)CCO)c(=O)[nH]1 | 9/84 + PER + ULF + BIR + Y | cytopathic effect / ELISA | HEL | 18.6 µM
Cc1ccn2c(C3OCCS3)cnc2c1 | OKA |  | HEL | >1000 µM
CCOC(=O)/C=C\C=C\[C@H]1O[C@@H](n2ccc(=O)[nH]c2=O)[C@H](O)[C@@H]1O | 07/1 |  | HEL | 10 µM
OC[C@H]1O[C@@H](c2cc(F)c(F)cc2F)C[C@@H]1O | (TK+)/OKA | plaque count | HEL | >200 µM
O=C(O)CP(=O)(O)O | Kawaguchi | plaque count |  | 4.5 µg/mL
Cc1ccn2c(C3OCCO3)cnc2c1 | OKA |  | HEL | >1000 µM
O=c1ccn([C@@H]2C[C@H](CO)C[C@H]2CO)c(=O)[nH]1 | YS |  | HEL | >100 µg/mL
OC[C@H]1O[C@H](c2cc(Br)c(F)cc2F)C[C@@H]1O | TK+/YS | plaque count | HEL | 149 µM
Nc1nc2c(ncn2CCCCO)c(=O)[nH]1 | 9/84 + PER + ULF + BIR + Y | cytopathic effect / ELISA | HEL | >100 µM
Cn1cc(C(=O)NCc2ccc(Cl)cc2)c(=O)c2cc(CN3CCOCC3)ccc21 | MO varicella isolate | plaque count | HFF | 0.4 µM
O=c1[nH]cnc2c1ncn2C1C[C@H](CO)[C@@H](CO)C1 | YS |  | HEL | >100 µg/mL
O=C(O)CP(=O)(O)O | Oka PMEA-resistant | cytopathic effect | HEL | 153.5 µM
Nc1nc2c(ncn2CCC(O)CO)c(=O)[nH]1 | 9/84-A | cytopathic effect / ELISA | HEL | >400 µM
O=c1[nH]c(=O)n([C@H]2C[C@H](O)[C@@H](CO)O2)cc1I | YS-W3 G19 H3 | plaque count | HEL | 0.4 µg/mL
O=c1[nH]c(=O)n([C@@H]2C[C@H](CO)C[C@H]2CO)cc1I | YS |  | HEL | >100 µg/mL
Nc1nc2c(ncn2COC(CO)CO)c(=O)[nH]1 | Oka PMEDAP-resistant | cytopathic effect | HEL | 0.17 µM
CC(NC(=S)Nc1ccc(NC(=O)c2ccccc2F)cc1C#N)c1ccc(F)cc1 | SC44 | ELISA | HFF | 0.14 µg/mL
Cc1cccn2c(C3OCCO3)cnc12 | YS |  | HEL | >1000 µM
Nc1ccn([C@@H]2O[C@H](CO)[C@@H](O)[C@@H]2O)c(=O)n1 | YS-W3 G19 H3 | plaque count | HEL | 0.15 µg/mL
Cc1cc([C@H]2C[C@H](O)[C@@H](CO)O2)c(Cl)cc1F | (TK-)07/1 | plaque count | HEL | >200 µM
Cc1ccn2c(C(SCCc3ccccc3)SCCc3ccccc3)cnc2c1 | YS |  | HEL | >1000 µM
O=c1[nH]c(=O)n([C@H]2C[C@H](O)[C@@H](CO)O2)cc1/C=C/Br | (TK+)/OKA | plaque count | HEL | 0.009 µM
COc1cc(NC(=O)c2ccccc2F)cc(C)c1NC(=S)NC(C)c1ccc(F)cc1 | ELLEN | ELISA | HFF | 0.7 µg/mL
OC[C@H]1O[C@@H](c2cc(Br)c(F)cc2F)C[C@@H]1O | (TK-)/YS/R | plaque count | HEL | >200 µM
CCCCCc1ccc(-c2cc3cn(C4C[C@H](F)[C@@H](CO)O4)c(=O)nc3o2)cc1 | YS |  |  | >2 µM

4 of the rows above, restated:

smiles,strain or isolate,method,cell line,value
Nc1nc2c(ncn2CC(CO)CCO)c(=O)[nH]1,9/84-A,cytopathic effect / ELISA,HEL,>100 µM
CCCCCc1ccc(-c2cc3cn(C4C[C@H](F)[C@@H](CO)O4)c(=O)nc3o2)cc1,YS,,,>2 µM
Cc1ccn2c(C3OCCS3)cnc2c1,OKA,,HEL,>1000 µM
Cc1cc([C@H]2C[C@H](O)[C@@H](CO)O2)c(Cl)cc1F,(TK-)07/1,plaque count,HEL,>200 µM